According to patent US8822496B2, “Dosage regimens for HCV combination therapy” (priority 2009, dated 2014):
Where a name gives a salt, the structure may show the parent alone.

Test system: HCV genotype-1
Assay: Clinical study with treatment-naive patients: monotherapy 14 days, then triple combination with P+R 14 days
Conditions: once-daily monotherapy
Protocol: Plasma HCV-RNA levels were measured with Roche COBAS® TaqMan® assay (LLOQ 25 IU/m L). After Day 28, at the discretion of the investigator, patients could continue to receive standard of care treatment, i.e., P+R.

Q: For C=C[C@@H]1C[C@]1(NC(=O)[C@@H]1C[C@H](Oc2cc(-c3csc(NC(=O)C(C)C)n3)nc3c(Br)c(OC)ccc23)CN1C(=O)[C@@H](NC(=O)OC1CCCC1)C(C)(C)C)C(=O)O [Compound (1) sodium salt], which “Onset of anti-viral resistance formation and increase in viral load” value is on record?
A: 5 to 6 days
